Pooled drug test results. Numbers come from NIAID ChemDB, via PubChem.

Shared fields: growth or infection tests; organism: Vaccinia virus

a–b is a range or a potency band.

structure,read-out,cell line,strain or isolate,value
CCC(Sc1ncnc2c1cnn2CCCCO)C(N)=O,EC50,E6SM,-,>400 µg/mL
CC1(CO)CCC(Cn2cnc3c(Cl)nc(N)nc32)C1(C)C,EC50,E6SM,-,≥100 µg/mL
CC1(CO)CCC(Cn2nnc3c(Cl)ncnc32)C1(C)C,EC50,E6SM,-,70 µg/mL
CC1(CO)CCC(Cn2nnc3c(=O)[nH]c(N)nc32)C1(C)C,EC50,E6SM,-,>200 µg/mL
Cc1cc([C@H]2C[C@H](O)[C@@H](CO)O2)c(Cl)cc1F,EC50,E6SM,-,>400 µg/mL
[N-]=[N+]=N[C@H]1[C@H](O)[C@@H](CO)O[C@H]1n1cnc2c(N)ncnc21,EC50,PRK,-,40–100 µg/mL
O=P1(O)OCC2O[C@@H](n3cnc4c(SCc5ccccc5)ncnc43)[C@H](O)C2O1,MIC,-,-,100 µg/mL
OC[C@H]1C[C@@H](n2cnc3c(Cl)ncnc32)[C@H](O)[C@@H]1O,EC50,VERO,Lederle chorioallantoic,13 µg/mL
Nc1nc(=O)n([C@@H]2C=C(CO)[C@@H](O)[C@H]2O)cc1I,EC50,-,Copenhagen,10.8 µg/mL
COc1ccc2[nH]c3c(c2c1)CCN1OCSCC(N)[C@@H]31,EC50,PRK,-,0.02 µg/mL
Nc1nc2c(ncn2[C@H]2C[C@H](O)[C@@H](CO)O2)c(=O)[nH]1,EC50,PRK,-,40–100 µg/mL
CCCc1cn([C@H]2C[C@H](O)[C@@H](CO)O2)c(=O)[nH]c1=O,EC50,Primary rabbit kidney cells,-,≥200 µg/mL
NC1CCCON2CCc3c([nH]c4ccccc34)[C@H]12,EC50,PRK,-,2 µg/mL
Nc1nccc2c1ncn2[C@@H]1C[C@H](CO)[C@@H](O)[C@H]1O,EC50,VERO,Lederle chorioallantoic,1.9 µg/mL
O=c1[nH]c(=O)n([C@H]2C[C@H](O)[C@@H](CO)O2)cc1/C=C/Br,EC50,Primary rabbit kidney cells,-,7 µg/mL
CSc1ncnc2c1ncn2[C@@H]1OC2COP(=O)(O)OC2[C@H]1O,MIC,-,-,3.2 µg/mL
CC(Sc1ncnc2c1cnn2COCC(O)CO)C(N)=O,EC50,E6SM,-,>400 µg/mL
CC1(CO)CCC(Cn2ccc(=O)[nH]c2=O)C1(C)C,EC50,E6SM,-,400 µg/mL
NC1CSCCN2CCc3c([nH]c4ccccc34)[C@H]12,EC50,E6SM,-,1 µg/mL
Nc1nc(=O)n([C@@H]2C=C(CO)[C@@H](O)[C@H]2O)cc1Cl,EC50,-,Copenhagen,>100 µg/mL
OC[C@H]1O[C@H](c2ccc(F)cc2F)C[C@@H]1O,EC50,E6SM,-,>400 µg/mL
Nc1ccnc(O[C@H]2CO[C@H](CO)[C@@H](O)C2)n1,EC50,E6SM,-,>20 µg/mL
Nc1ccn(C[C@@H](CO)OCP(=O)(O)O)c(=O)n1,MIC,-,-,4 µg/mL
O=c1[nH]c(=O)n([C@H]2C[C@H](O)[C@@H](CO)O2)cc1I,EC50,Primary rabbit kidney cells,-,0.2 µg/mL
[N-]=[N+]=N[C@@H]1[C@H](O)[C@@H](CO)O[C@H]1n1ccc(N)nc1=O,EC50,PRK,-,40–100 µg/mL
CC1(CO)CCC(Cn2nnc3c(N)ncnc32)C1(C)C,EC50,E6SM,-,70 µg/mL
CO[C@@H]1[C@H](O)[C@@H](CO)O[C@H]1n1cnc2c(N)ncnc21,EC50,PRK,-,30 µg/mL
NC(=O)CSc1ncnc2c1cnn2COCC(O)CO,EC50,E6SM,-,>400 µg/mL
O=c1[nH]c(=O)n([C@H]2C[C@H](O)[C@@H](COP(=O)(O)O)O2)cc1/C=C/c1ccccc1,EC50,PRK,-,20 µg/mL
O=C(Nc1nccc2c1ncn2[C@@H]1C[C@H](CO)[C@@H](O)[C@H]1O)c1ccccc1,EC50,L929,Lederle,7 µg/mL
Cc1cn([C@@H]2CO[C@H](CO)[C@@H](O)C2)c(=O)[nH]c1=O,EC50,E6SM,-,>20 µg/mL
C#C[C@H](O)C1=C[C@@H](n2cnc3c(N)ncnc32)[C@H](O)[C@@H]1O,EC50,E6SM,-,4 µg/mL
CC1(CO)CCC(Cn2cnc3c(=O)[nH]c(N)nc32)C1(C)C,EC50,E6SM,-,>400 µg/mL
C#C[C@@H](O)C1=C[C@@H](n2cnc3c(N)ncnc32)[C@H](O)[C@@H]1O,EC50,E6SM,-,0.07 µg/mL
Cc1cc([C@H]2C[C@H](O)[C@@H](CO)O2)c(F)cc1F,EC50,E6SM,-,>400 µg/mL
O=c1[nH]c(=O)n([C@H]2C[C@H](O)[C@@H](CO)O2)cc1I,EC50,PRK,-,0.2 µg/mL
Nc1nccc2c1ncn2[C@@H]1C[C@H](CO)[C@@H](O)[C@H]1O,MIC,-,-,2 µg/mL
Nc1ncnc2c1ncn2[C@H]1CO[C@H](CO)[C@@H](O)C1,EC50,E6SM,-,>20 µg/mL
COC[C@H]1O[C@@H](n2cnc3c(N)ncnc32)[C@H](O)[C@@H]1O,EC50,PRK,-,>100 µg/mL
Nc1ncnc2c1ncn2[C@@H]1CC[C@@H](O)[C@H]1O,MIC,-,-,0.02 µg/mL
[N-]=[N+]=N[C@@H]1[C@H](O)[C@@H](CO)O[C@H]1n1cnc2c(=O)[nH]c(N)nc21,EC50,PRK,-,>200 µg/mL
O=S(=O)(O)c1c2ccccc2c(-c2c3nc(c(-c4c5ccccc5c(S(=O)(=O)O)c5ccccc45)c4ccc([nH]4)c(-c4c5ccccc5c(S(=O)(=O)O)c5ccccc45)c4nc(c(-c5c6ccccc6c(S(=O)(=O)O)c6ccccc56)c5ccc2[nH]5)C=C4)C=C3)c2ccccc12,EC50,BSC-40,IHD-J (EEV),0.55 µg/mL
Nc1ccn([C@@H]2O[C@H](CO)[C@@H](O)[C@@H]2O)c(=O)n1,EC50,PRK,-,0.04 µg/mL
Nc1nccc2c1ncn2[C@@H]1CC[C@@H](O)[C@H]1O,MIC,-,-,0.02 µg/mL
Nc1ccn([C@@H]2C[C@H](CO)[C@@H](O)[C@H]2O)c(=O)n1,EC50,VERO,Lederle chorioallantoic,9 µg/mL
O=c1[nH]c(=O)n([C@@H]2C[C@H](CO)[C@@H](O)C2)cc1I,EC50,PRK,-,40 µg/mL

Rows are shuffled and stem from different studies. An empty or dashed field is not shown. ECn: concentration that inhibits the pathogen or its effect by n%.